Laboratory results: PMC8044140 (Communications Biology, 2021)
pKd: −log10 of the molar value. Construct, isoform or probe ends are uncertain for at least one entry.

Target: PefR H114A (Streptococcus agalactiae) (UniProt Q8E4J9)
Test: fluorescence polarization
Settings: hemin added; FP: 40 mM HEPES/Na pH 7.4, 500 mM NaCl, 10% glycerol, 10 nM DNA, room temperature; recombinant protein; protein details: C-terminal HRV3C site-6xHis, removed; label: 5'-FAM on antisense strand

GCTATTATAAAATAGTTCTCACGATAACTAAAATAATG (double strand) [pefAB operator 38 bp]
pKd: 7.60
